Measured values from several laboratories, pooled; numbers as filed in NIAID ChemDB.

Shared fields: target-level tests; organism: HIV-1; protein: Reverse transcriptase

Two numbers with a dash give a range or band. ICn: concentration for n% inhibition. Conditions beyond the fields shown may differ between rows.

Nc1ncnc2c1ncn2[C@H]1CO[C@@H](COP(=O)(O)OP(=O)(O)OP(=O)(O)O)C1 ; read-out: IC50 ; result: 35 µM
Nc1ccn([C@H]2CC[C@@H](COP(=O)(O)OP(=O)(O)OP(=O)(O)O)O2)c(=O)n1 ; strain or isolate: IIIB ; read-out: IC50 ; result: 0.3 µg/mL
Cc1cc(S(N)(=O)=O)ccc1NC(=O)COc1ccccc1C(=O)c1cc(Cl)cc(C#N)c1 ; strain or isolate: NNRTI-resistant ; method: nucleotide incorporation / radiometric ; changes: RT-K103N Y181C ; read-out: IC50 ; result: 0.0051 µM
C=CCOc1ccc2c(c1OC(C)=O)C(=O)c1ccccc1C2=O ; read-out: IC50 ; result: 82 µM
Cc1ccc(C(=O)Nc2ccc(S(=O)(=O)O)c3cc(S(=O)(=O)O)cc(S(=O)(=O)O)c23)cc1NC(=O)c1cccc(NC(=O)c2ccc(C(=O)Nc3cccc(C(=O)Nc4cc(C(=O)Nc5ccc(S(=O)(=O)O)c6cc(S(=O)(=O)O)cc(S(=O)(=O)O)c56)ccc4C)c3)cc2)c1 ; strain or isolate: IIIB ; method: nucleotide incorporation ; read-out: IC50 ; result: 39 µg/mL
CNC(=O)c1nc([C@]2(C)CSC([C@]3(C)CSC([C@]4(C)CSC(/C=C/c5ccccc5)=N4)=N3)=N2)oc1C ; method: nucleotide incorporation ; read-out: IC50 ; result: 252 µM
Nc1ccn([C@H]2CC[C@@H](COP(=O)(O)OP(=O)(O)OP(=O)(O)O)O2)c(=O)n1 ; read-out: Ki ; result: 0.038 µM
COc1ccccc1N1CCN(c2nc(Cc3c(F)cccc3F)c(C)c(=O)[nH]2)CC1 ; method: nucleotide incorporation ; changes: V106A ; read-out: Ki ; result: 4.1 µM
CCCCCCCCCCCCCCCC(=O)NCC1CC(OP(=O)(O)OCC2CC(OP(=O)(O)OCC3CC(O)C(n4cnc5c(N)ncnc54)O3)C(n3cnc4c(N)ncnc43)O2)C(n2cnc3c(N)ncnc32)O1 ; strain or isolate: IIIB ; method: RT activity ; read-out: IC50 ; result: >100 µM
CC(=O)COc1ccc2c(c1OCC(C)=O)C(=O)c1ccccc1C2=O ; changes: Y181C ; read-out: IC50 ; result: >100 µM
C[C@@H]1N2Cc3c(c4ccccc4n3C(=O)OC(C)(C)C)C1(O)c1c(n(C(=O)OC(C)(C)C)c3ccccc13)C2 ; method: radiometric ; read-out: IC50 ; result: <32 µM
Nc1ccn([C@@H]2O[C@H](CO)C[C@@H]2F)c(=O)n1 ; read-out: Ki ; result: 0.27 µM
[B-][P@@](=O)(OC[C@H]1O[C@@H](n2cc(C)c(=O)[nH]c2=O)C[C@@H]1N=[N+]=[N-])OP(=O)(O)OP(=O)(O)O ; method: fluorescence ; read-out: Ki ; result: 0.048 µM
COc1c(C(=O)/C=C(/C)Nc2ccccc2)c(O)c(S(=O)(=O)OC2CCCC2)c2occc12 ; method: RT activity / radiometric ; read-out: IC50 ; result: 0.0000079 µM
CCCCN(CCCC)c1nc(OCCc2ccc([N+](=O)[O-])cc2)c2ncn([C@@H]3O[C@H](COP(O)(=S)O[C@H]4[C@@H](F)[C@H](n5cnc6c(N)ncnc65)O[C@@H]4CO)[C@@H](O)[C@H]3O)c2n1 ; method: RT activity ; read-out: Ki ; result: 19.3 µM
CC(=O)Oc1c(OCC(=O)c2ccc(Br)cc2)ccc2c1C(=O)c1ccccc1C2=O ; read-out: IC50 ; result: 5 µM
Cc1ccccc1CC(=O)Nc1nc(-c2ccccc2)cs1 ; method: RT activity / absorbance ; read-out: IC50 ; result: 69.3 µM
COc1c(C(=O)/C=C(/C)Nc2ccc([N+](=O)[O-])cc2)c(O)c(S(=O)(=O)OC2CCCCC2)c2occc12 ; method: RT activity / radiometric ; read-out: IC50 ; result: 0.0000084 µM
O=S(=O)(O)c1cc(S(=O)(=O)O)c2c(Nc3ccnc4cc(Cl)ccc34)ccc(S(=O)(=O)O)c2c1 ; strain or isolate: IIIB ; method: nucleotide incorporation ; read-out: IC50 ; result: 100 µg/mL
O=C1c2ccccc2S[C@H]2[C@H](O)[C@@H](O)[C@@H](O)[C@H](O)CN12 ; method: RT activity / absorbance ; read-out: IC50 ; result: 2.73 µM
CCCCCCC(O)C(=O)O[C@H]1CC(C)(C)[C@@H]2CC=C(C=O)C3[C@@H](O)OC(=O)[C@@]32[C@H]1O ; method: nucleotide incorporation ; read-out: IC50 ; result: 190 µM
C=Cc1cc(N(CC)CC)nc(S(C)(=O)=O)n1 ; method: nucleotide incorporation / radiometric ; changes: RT-Y181I ; read-out: Ki ; result: >400 µM
Cc1nnc2c3ccccc3c(N3CCc4cc(O)c(O)cc4C3)nn12 ; strain or isolate: KER2008 ; method: RT activity / fluorescence ; read-out: IC50 ; result: 1.99 µM
C=C(C)OC(=O)N1c2cc(Cl)ccc2NC(=S)C1(C)C ; strain or isolate: D34 ; method: radiometric ; read-out: IC50 ; result: 0.13 µM
Cc1ccc(CC(=O)Nc2nc(-c3ccccc3)cs2)cc1 ; method: RT activity / absorbance ; read-out: IC50 ; result: 49.3 µM
O=C(c1c(O)cc(O)cc1O)c1c(-c2ccc(O)cc2)oc2cc(O)c3c(c12)O[C@H](c1ccc(O)cc1)CC3 ; strain or isolate: IIIB ; read-out: IC50 ; result: 34 µg/mL
O=C1c2ccccc2S[C@@H]2[C@H](O)[C@@H](O)[C@@H](O)[C@H](O)CN12 ; method: RT activity / absorbance ; read-out: IC50 ; result: 5.51 µM
CCCCCCCCCCCCCCCC(=O)NCC1CC(OP(=O)(O)OCC2OC(n3cnc4c(N)ncnc43)C(OP(=O)(O)OCC3OC(n4cnc5c(N)ncnc54)C(O)C3O)C2O)C(n2cnc3c(N)ncnc32)O1 ; strain or isolate: IIIB ; method: RT activity ; read-out: IC50 ; result: <100 µM
COc1c(-c2cc(C)on2)c(O)c(S(=O)(=O)OC2CCCC2)c2occc12 ; method: RT activity / radiometric ; read-out: IC50 ; result: 0.0000062 µM
O=C(Nc1ccc(-c2ccc(C(=O)Nc3ccc(S(=O)(=O)O)c4cc(S(=O)(=O)O)cc(S(=O)(=O)O)c34)cc2)cc1)Nc1ccc(-c2ccc(C(=O)Nc3ccc(S(=O)(=O)O)c4cc(S(=O)(=O)O)cc(S(=O)(=O)O)c34)cc2)cc1 ; strain or isolate: IIIB ; method: nucleotide incorporation ; read-out: IC50 ; result: 46 µg/mL
CC1=CCC[C@H]2[C@](C)(CC3=CC(=O)C=C(O)C3=O)[C@@H](C)CC[C@]12C ; read-out: IC50 ; result: 6.8 µg/mL
CCC(c1nc(N(C)C)[nH]c(=O)c1C)c1c(F)cccc1F ; method: nucleotide incorporation ; changes: Y188L ; read-out: Ki ; result: >20 µM
Cc1ccccc1C1=CC(c2cnc(C(C)C)cn2)SC(N)=N1 ; method: RT activity / ELISA / absorbance ; read-out: IC50 ; result: 89.33 µM
CCCCCCCCC(O)C(=O)O[C@H]1CC(C)(C)[C@@H]2CC=C(C=O)C3[C@@H](O)OC(=O)[C@@]32[C@H]1O ; method: nucleotide incorporation ; read-out: IC50 ; result: >223 µM
COc1c2c(cc3c1[C@H](c1ccc(O)c(Oc4ccccc4)c1)[C@H]1C(=O)OC[C@@H]1C3)OCO2 ; method: nucleotide incorporation ; read-out: IC50 ; result: 5.3 µM
C=Cc1cc(N(C)C)nc(SCc2ccc(OC)cc2)n1 ; method: nucleotide incorporation / radiometric ; changes: RT-K103N ; read-out: Ki ; result: >400 µM
COc1c(-c2cc(C)on2)c(O)c(S(=O)(=O)Oc2ccc(F)cc2)c2occc12 ; method: RT activity / radiometric ; read-out: IC50 ; result: 0.0000056 µM
O=C1c2ccccc2S[C@@H]2[C@H](O)[C@@H](O)[C@H](O)[C@H](O)CN12 ; method: RT activity / absorbance ; read-out: IC50 ; result: 3.44 µM
CC1=CCC[C@H]2[C@](C)(Cc3c(O)ccc(O)c3O)[C@@H](C)CC[C@]12C ; read-out: IC50 ; result: 4.5 µg/mL
O=C(Nc1ccc(C(=O)Nc2ccc(P(=O)(O)O)cc2)cc1)Nc1ccc(C(=O)Nc2ccc(P(=O)(O)O)cc2)cc1 ; strain or isolate: IIIB ; method: nucleotide incorporation ; read-out: IC50 ; result: 100 µg/mL
Cc1nnc2c3ccccc3c(N3CCc4ccc(C(=O)O)cc4C3)nn12 ; strain or isolate: IIIB ; method: RT activity / fluorescence ; read-out: IC90 ; result: 94.5 µM
CC(C)c1cnc(C2C=C(c3cccc([N+](=O)[O-])c3)N=C(N)S2)cn1 ; method: RT activity / ELISA / absorbance ; read-out: IC50 ; result: 6.34 µM
COc1cc2c(cc1OC)CN(c1nn3c(C(F)F)nnc3c3ccccc13)CC2 ; strain or isolate: 98US_MSC5016 ; method: RT activity / fluorescence ; read-out: IC50 ; result: 3.41 µM
O=C(Nc1cccc(C(=O)Nc2ccc(P(=O)(O)O)cc2)c1)Nc1cccc(C(=O)Nc2ccc(P(=O)(O)O)cc2)c1 ; strain or isolate: IIIB ; method: nucleotide incorporation ; read-out: IC50 ; result: 5 µg/mL
CC1=CCC[C@H]2[C@](C)(CC3=C(O)C(=O)C(=O)C=C3O)[C@@H](C)CC[C@]12C ; read-out: IC50 ; result: 5 µg/mL
Cc1cccc(C2=CC(c3cnc(C(C)C)cn3)SC(N)=N2)c1 ; method: RT activity / ELISA / absorbance ; read-out: IC50 ; result: >100 µM
O=C1c2ccccc2S[C@H]2[C@@H](O)[C@@H](O)[C@H](O)[C@H](O)CN12 ; method: RT activity / absorbance ; read-out: IC50 ; result: 17.17 µM
CC(C)c1cnc(C2C=C(c3ccccc3)N=C(N)S2)cn1 ; method: RT activity / ELISA / absorbance ; read-out: IC50 ; result: >100 µM
COc1cccc(-c2nnc3c4ccccc4c(N4CCc5ccccc5C4)nn23)c1 ; strain or isolate: KER2008 ; method: RT activity / fluorescence ; read-out: IC50 ; result: 67 µM
CC(C)c1cnc(C2C=C(c3ccc(Cl)cc3)N=C(N)S2)cn1 ; method: RT activity / ELISA / absorbance ; read-out: IC50 ; result: 34.42 µM
O=C(Nc1cccc(C(=O)Nc2ccc(C(=O)Nc3cc(S(=O)(=O)O)cc4cc(S(=O)(=O)O)cc(S(=O)(=O)O)c34)cc2)c1)Nc1cccc(C(=O)Nc2ccc(C(=O)Nc3cc(S(=O)(=O)O)cc4cc(S(=O)(=O)O)cc(S(=O)(=O)O)c34)cc2)c1 ; strain or isolate: IIIB ; method: nucleotide incorporation ; read-out: IC50 ; result: 55 µg/mL
O=C(O)C(=O)CC(=O)C1(Cc2ccc(Cl)cc2)CCCN(Cc2ccccc2)C1 ; read-out: IC50 ; result: >300 µM
CC(C)c1cnc(C2C=C(c3ccccc3O)N=C(N)S2)cn1 ; method: RT activity / ELISA / absorbance ; read-out: IC50 ; result: 67.21 µM
COc1cc([C@H]2c3c(cc(OC)c(OC)c3OC)C[C@H]3CSC[C@@H]32)cc(OC)c1OC ; method: nucleotide incorporation ; read-out: IC50 ; result: 3.6 µM
O=C(O)/C=C/c1ccc(N=Nc2c(S(=O)(=O)O)cc3cc(NC(=O)Nc4ccc5c(O)c(N=Nc6ccc(/C=C/C(=O)O)cc6)c(S(=O)(=O)O)cc5c4)ccc3c2O)cc1 ; read-out: IC50 ; result: 0.025–0.1 µM
CC(C)c1cnc(C2C=C(c3ccc([N+](=O)[O-])cc3)N=C(N)S2)cn1 ; method: RT activity / ELISA / absorbance ; read-out: IC50 ; result: 3.26 µM

8 of the rows above, restated:

{"compound": "Cc1ccc(C(=O)Nc2ccc(S(=O)(=O)O)c3cc(S(=O)(=O)O)cc(S(=O)(=O)O)c23)cc1NC(=O)c1cccc(NC(=O)c2ccc(C(=O)Nc3cccc(C(=O)Nc4cc(C(=O)Nc5ccc(S(=O)(=O)O)c6cc(S(=O)(=O)O)cc(S(=O)(=O)O)c56)ccc4C)c3)cc2)c1", "strain or isolate": "IIIB", "method": "nucleotide incorporation", "read-out": "IC50", "result": "39 µg/mL"}
{"compound": "COc1c(C(=O)/C=C(/C)Nc2ccccc2)c(O)c(S(=O)(=O)OC2CCCC2)c2occc12", "method": "RT activity / radiometric", "read-out": "IC50", "result": "0.0000079 µM"}
{"compound": "COc1c(-c2cc(C)on2)c(O)c(S(=O)(=O)Oc2ccc(F)cc2)c2occc12", "method": "RT activity / radiometric", "read-out": "IC50", "result": "0.0000056 µM"}
{"compound": "COc1cccc(-c2nnc3c4ccccc4c(N4CCc5ccccc5C4)nn23)c1", "strain or isolate": "KER2008", "method": "RT activity / fluorescence", "read-out": "IC50", "result": "67 µM"}
{"compound": "CCCCCCCCCCCCCCCC(=O)NCC1CC(OP(=O)(O)OCC2CC(OP(=O)(O)OCC3CC(O)C(n4cnc5c(N)ncnc54)O3)C(n3cnc4c(N)ncnc43)O2)C(n2cnc3c(N)ncnc32)O1", "strain or isolate": "IIIB", "method": "RT activity", "read-out": "IC50", "result": ">100 µM"}
{"compound": "CCCCCCCCCCCCCCCC(=O)NCC1CC(OP(=O)(O)OCC2OC(n3cnc4c(N)ncnc43)C(OP(=O)(O)OCC3OC(n4cnc5c(N)ncnc54)C(O)C3O)C2O)C(n2cnc3c(N)ncnc32)O1", "strain or isolate": "IIIB", "method": "RT activity", "read-out": "IC50", "result": "<100 µM"}
{"compound": "Cc1ccccc1CC(=O)Nc1nc(-c2ccccc2)cs1", "method": "RT activity / absorbance", "read-out": "IC50", "result": "69.3 µM"}
{"compound": "CC(=O)Oc1c(OCC(=O)c2ccc(Br)cc2)ccc2c1C(=O)c1ccccc1C2=O", "read-out": "IC50", "result": "5 µM"}